Anti-infective test results gathered from many reports (values: NIAID ChemDB through PubChem).

Common to all: tests in culture; organism: HIV-1; cell line: Jurkat cells; read-out: EC50

ECn is the concentration giving n% inhibition of infection, replication or growth. Rows are shuffled and stem from different studies. An empty or dashed field is not shown.

| SMILES | strain | changes | method | value |
|---|---|---|---|---|
| CCCCC/C=C\C/C=C\C/C=C\C/C=C\CCCCOC(CO)CO | NL4-3-Luc VSV pseudotyped | - | luciferase | >10 µM |
| C/C1=C\C=C(\C(C)C)[C@@H](O)C/C(C)=C/CC/C(C)=C/CC1 | IIIB | - | p24 | >0.1 µM |
| CC(C)CN(C[C@@H](O)[C@H](Cc1ccccc1)NC(=O)O[C@H]1CO[C@H]2OCC[C@H]21)S(=O)(=O)c1ccc(N)cc1 | - | - | PCR | 0.0025 µM |
| CC(=O)N1CCN(c2cncc3sc(C(N)=O)c(N)c23)CC1 | NL4-3 | - | p24 / ELISA | 0.634 µM |
| Nc1nc(NC2CC2)c2ncn([C@H]3C=C[C@@H](CO)C3)c2n1 | NL4-3 | - | - | 0.053 µM |
| COc1cc2c(c(OC)c1OC)-c1c(cc(OC)c(OC)c1OC)C[C@H](C)[C@H](C)C2 | - | - | MTT | >20 µM |
| Cc1cn([C@H]2C[C@H](N=[N+]=[N-])[C@@H](CO)O2)c(=O)[nH]c1=O | NL4-3-Luc VSV pseudotyped | - | luciferase | <10 µM |
| Nc1nc(=O)n([C@@H]2CO[C@H](CO)S2)cc1F | IIIB | - | p24 | 3.5 µM |
| O=c1[nH]cnc2c1ncn2[C@H]1CC[C@@H](CO)O1 | NL4-3 | +Vpx | - | 2.572 µM |
| CC(C)C1=C[C@H](c2ccccc2)CC[C@H]1O | IIIB | - | p24 | <0.1 µM |
| NC(=O)c1cc2c(-c3ccc4ccccc4c3)cncc2s1 | NL4-3 | - | p24 / ELISA | 0.0034 µM |
| Nc1nc(N)c2ncn([C@H]3CO[C@@H](CO)O3)c2n1 | IIIB | - | - | 1.37 µM |
| C[C@H](Cn1cnc2c(N)ncnc21)OCP(=O)(O)O | NL4-3 | - | - | 11.6 µM |
| Nc1nc(=O)n([C@H]2CO[C@@H](CO)S2)cc1F | IIIB | - | p24 | 6 µM |
| NC(=O)c1cc2c(-c3cnc4ccccc4c3)cncc2s1 | NL4-3 | - | p24 / ELISA | 0.0064 µM |
| Nc1nc2c(ncn2[C@H]2CO[C@@H](CO)O2)c(=O)[nH]1 | IIIB | - | RT activity | 0.34 µM |

A second listing of 2 rows from above:

| SMILES | strain | changes | method | value |
|---|---|---|---|---|
| Cc1cn([C@H]2C[C@H](N=[N+]=[N-])[C@@H](CO)O2)c(=O)[nH]c1=O | NL4-3-Luc VSV pseudotyped | - | luciferase | <10 µM |
| CCCCC/C=C\C/C=C\C/C=C\C/C=C\CCCCOC(CO)CO | NL4-3-Luc VSV pseudotyped | - | luciferase | >10 µM |